Results published in PMC3573263 (Chemical biology & drug design, 2013).

Amino acid sequences for entries named in this document (tags omitted). Residues count along the entry.
UniProt O68720, 164-468 limits assumed: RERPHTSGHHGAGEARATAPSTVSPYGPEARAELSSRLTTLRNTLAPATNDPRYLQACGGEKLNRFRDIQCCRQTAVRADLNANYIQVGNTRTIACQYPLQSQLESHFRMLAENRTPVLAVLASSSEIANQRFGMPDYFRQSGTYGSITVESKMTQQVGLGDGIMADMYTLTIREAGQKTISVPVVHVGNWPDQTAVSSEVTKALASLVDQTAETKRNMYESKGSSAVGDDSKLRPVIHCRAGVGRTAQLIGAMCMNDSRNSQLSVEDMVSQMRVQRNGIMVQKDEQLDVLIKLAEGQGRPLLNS

Columns and labels:
[1] = biological target: wild-type YopH (Yersinia pestis, UniProt O68720); format: binding
[2] = biological target: YopH (Yersinia pestis, UniProt O68720); conditions: read-out: pNPP IC50; cited from earlier work

Row | Substance | Kd [1] [µM] | IC50 [2] [µM]
1 | (difluoro((3-(4-((((E)-furan-2-ylmethylidene)amino)oxy)methyl)phenyl)phenyl))methyl) phosphonic acid [compound 2] | 141 | 1.2
2 | (difluoro((3-(4-((((E)-furan-3-ylmethylidene)amino)oxy)methyl)phenyl)phenyl))methyl) phosphonic acid [compound 1] | 311 | 3.67
